Measurements from patent US5968513A (priority 1996, dated 1999).
Values joined by “and” are separate entries in the source; they are usually repeats but may differ in a detail not shown here. Equal values may be shown once.

Tested on: HIV-1

Human Chorionic Gonadotropin [hCG]
effectiveness of weekly hCG therapy in humans (at least 15,000 I.U. and up to 45,000 I.U. weekly): effective | Weight gain (individual patients): 0 kg | decrease in viral load (individual patients (PH-VE NASBA; PG-1; PH-DP TCID)): 1.5 log and 1 log and 2 log | Viral Load Rx (post treatment with hCG), Roche Amplicor (individual patients, Roche Amplicor, lower detection limit 200 copies): 4,900,000 copies | rise of CD4^+ T cell levels (patient PG-4, no other antiviral therapy, from 47 mm^3 to 424 mm^3): 10 fold | CD4^+ T cells after Ritonavir added to hCG (patient PH-SPBE, Ritonavir added at 22 weeks): over 300 mm^3

Pregnyl: commercial hCG preparation Pregnyl, Organon
Viral Load Rx (post treatment with hCG), TCID (patient PH-DP, 1 mo, TCID assay, PreRx 100): 1

hCG (APL): commercially available partially purified hCG preparation APL, Wyeth Ayerst
toxicity / tolerability in patients (hCG therapy of HIV-infected patients): exacerbation of preexisting cholestasis
